A mixed list of measured activities; the numbers were collected in NIAID ChemDB.

Common to all: tests in culture; species: Vaccinia virus; read-out: EC50

Rows are shuffled and stem from different studies.

| smiles | strain or isolate | cell line | result |
|---|---|---|---|
| O=c1[nH]c(=O)n([C@H]2C[C@H](O)[C@@H](CO)O2)cc1I | - | Primary rabbit kidney cells | 0.2 µg/mL |
| Nc1ncnc2c1ncn2[C@@H]1O[C@H](CO)[C@@H](O)[C@H]1OP(=O)(O)OC[C@H]1O[C@@H](n2cnc3c(N)ncnc32)[C@H](OP(=O)(O)OC[C@H]2O[C@@H](n3cc(/C=C/Br)c(=O)[nH]c3=O)C[C@@H]2O)[C@@H]1O | - | PRK | 7 µg/mL |
| Nc1nc(=O)n([C@@H]2C=C(CO)[C@@H](O)[C@H]2O)cc1I | Copenhagen | - | 10.8 µg/mL |
| OC[C@H]1O[C@@H](n2cnc3c(Cl)nc(C#CCF)nc32)[C@H](O)[C@@H]1O | - | HFF | >20 µg/mL |
| CC(=O)N[C@H]1C[C@@H](n2cnc3c(N)ncnc32)[C@H](O)[C@@H]1O | - | HFF | >100 µg/mL |
| Cc1cn([C@@H]2O[C@@H](CO)[C@H](O)[C@H]2O)c(=O)[nH]c1=O | - | VERO B | >1000 µM |
| C#Cc1nc(Cl)c2ncn([C@@H]3O[C@H](CO)[C@@H](O)[C@H]3O)c2n1 | - | HFF | >0.8 µg/mL |
| Nc1nc2c(ncn2COC(CO)CO)c(=O)[nH]1 | P71 | HeLa | >400 µg/mL |
| O=C(Nc1nccc2c1ncn2[C@@H]1C[C@H](CO)[C@@H](O)[C@H]1O)c1ccccc1 | Lederle | L929 | 7 µg/mL |
| CC(C)c1cn([C@@H]2O[C@H](COP(=O)(O)O)[C@@H](O)[C@H]2O)c(=O)nc1N | - | - | >400 µg/mL |
| S=c1[nH]nc(-c2cn(-c3ccccc3)nc2-c2ccccc2)o1 | - | HEL | >16 µg/mL |
| CCc1cn([C@H]2C[C@H](O)[C@@H](CO)O2)c(=O)[nH]c1=O | - | Primary rabbit kidney cells | 1 µg/mL |
| CCc1cn([C@@H]2OC3COP(=O)(O)OC3[C@H]2O)c(=O)nc1N | - | - | >400 µg/mL |
| O=c1[nH]c(=O)n([C@H]2C[C@H](O)[C@@H](CO)O2)cc1/C=C/Br | - | Primary rabbit kidney cells | 7 µg/mL |
| Nc1ncnc2c1ncn2[C@@H]1O[C@@H](CO)[C@H](O)[C@H]1O | - | VERO B | >1000 µM |
| Nc1nccc2nnn([C@@H]3O[C@H](CO)[C@@H](O)[C@H]3O)c12 | - | VERO | >398 µM |
| Nc1ncnc2c1ncn2CCCC(O)CF | - | ESM | >400 µg/mL |
| O=c1[nH]c(=O)n([C@H]2C[C@H](O)[C@@H](CO)O2)cc1F | - | PRK | 0.07 µg/mL |
| O=c1[nH]c(=O)n([C@H]2C[C@H](O)[C@@H](CO)O2)cc1I | - | Primary rabbit kidney cells | 1.1 µM |
| [N-]=[N+]=NCc1cn([C@H]2C[C@H](O)[C@@H](CO)O2)c(=O)[nH]c1=O | - | HSF | >200 µg/mL |
| Nc1ccn(CCCC(O)CF)c(=O)n1 | - | ESM | >400 µg/mL |
| O=C(CCl)NCc1cn([C@H]2C[C@H](O)[C@@H](CO)O2)c(=O)[nH]c1=O | - | HSF | 100 µg/mL |
| CCCCc1cn([C@@H]2O[C@H](COP(=O)(O)O)[C@@H](O)[C@H]2O)c(=O)nc1N | - | - | >400 µg/mL |
| Oc1cccc(O)c1-c1c2nc(c(-c3c(O)cccc3O)c3ccc([nH]3)c(-c3c(O)cccc3O)c3nc(c(-c4c(O)cccc4O)c4ccc1[nH]4)C=C3)C=C2 | WR | BSC-40 | 0.19 µg/mL |
| CCCc1cn([C@H]2C[C@H](O)[C@@H](COP(=O)(O)O)O2)c(=O)[nH]c1=O | - | HEP-2 | >797 µg/mL |
| NC1=Nn2c(nnc2-c2cn(-c3ccccc3)nc2-c2ccccc2)SC1 | - | HEL | >16 µg/mL |
| Nc1nc(=O)n([C@@H]2C=C(CO)[C@@H](O)[C@H]2O)cc1Cl | Copenhagen | - | >100 µg/mL |
| O=c1[nH]n2c(-c3cn(-c4ccccc4)nc3-c3ccccc3)nnc2sc1=O | - | HEL | >80 µg/mL |
| CSCc1cn([C@H]2C[C@H](O)[C@@H](CO)O2)c(=O)[nH]c1=O | - | HSF | 7 µg/mL |
| Nc1nccc2nn([C@@H]3O[C@H](CO)[C@@H](O)[C@H]3O)nc12 | - | VERO | >398 µM |
| O=c1[nH]c(=O)n([C@H]2C[C@H](O)[C@@H](CO)O2)cc1Br | - | Primary rabbit kidney cells | 0.32 µM |
| CCCCCCCCCCCCCCCCCCOCCOP(=O)(O)COCCn1cnc2c(=O)[nH]c(N)nc21 | Copenhagen | HFF | 0.013 µM |
| Nc1ncnc2c1ncn2[C@@H]1CC[C@@H](O)[C@H]1O | - | L929 | 0.17 µM |
| Nc1ncnc2c1nnn2[C@H]1C[C@H](O)[C@@H](CO)O1 | - | VERO | >396 µM |
| CCc1cn([C@H]2C[C@H](O)[C@@H](CO)O2)c(=O)[nH]c1=O | - | HEP-2 | 16 µg/mL |
| c1ccc(C2=Nn3c(nnc3-c3cn(-c4ccccc4)nc3-c3ccccc3)SC2)cc1 | - | HEL | >3.2 µg/mL |
| Cn1cc(C(=O)NCc2ccc(Cl)cc2)c(=O)c2cc(CN3CCOCC3)ccc21 | - | HFF | 76.2 µM |
| CCCCCOC(=O)C(O)Cn1cnc2c(N)ncnc21 | - | Primary rabbit kidney cells | 85 µg/mL |
| CCCc1cn([C@@H]2O[C@H](COP(=O)(O)O)[C@@H](O)[C@H]2O)c(=O)nc1N | - | - | >400 µg/mL |
| OC[C@H]1O[C@@H](n2nnc3ccnc(Cl)c32)[C@H](O)[C@@H]1O | - | VERO | >370 µM |

A second listing of 3 rows from above:

smiles | strain or isolate | cell line | result
c1ccc(C2=Nn3c(nnc3-c3cn(-c4ccccc4)nc3-c3ccccc3)SC2)cc1 | - | HEL | >3.2 µg/mL
Nc1ncnc2c1ncn2[C@@H]1O[C@H](CO)[C@@H](O)[C@H]1OP(=O)(O)OC[C@H]1O[C@@H](n2cnc3c(N)ncnc32)[C@H](OP(=O)(O)OC[C@H]2O[C@@H](n3cc(/C=C/Br)c(=O)[nH]c3=O)C[C@@H]2O)[C@@H]1O | - | PRK | 7 µg/mL
CC(=O)N[C@H]1C[C@@H](n2cnc3c(N)ncnc32)[C@H](O)[C@@H]1O | - | HFF | >100 µg/mL

Blank or dashed fields: not listed here. ECn is the concentration giving n% inhibition of infection, replication or growth.